# Reference: PMC3189208 (PLoS ONE, 2011)
# Amino acid sequences for entries named in this document (tags omitted).
# UniProt P35372, whole entry, looked up: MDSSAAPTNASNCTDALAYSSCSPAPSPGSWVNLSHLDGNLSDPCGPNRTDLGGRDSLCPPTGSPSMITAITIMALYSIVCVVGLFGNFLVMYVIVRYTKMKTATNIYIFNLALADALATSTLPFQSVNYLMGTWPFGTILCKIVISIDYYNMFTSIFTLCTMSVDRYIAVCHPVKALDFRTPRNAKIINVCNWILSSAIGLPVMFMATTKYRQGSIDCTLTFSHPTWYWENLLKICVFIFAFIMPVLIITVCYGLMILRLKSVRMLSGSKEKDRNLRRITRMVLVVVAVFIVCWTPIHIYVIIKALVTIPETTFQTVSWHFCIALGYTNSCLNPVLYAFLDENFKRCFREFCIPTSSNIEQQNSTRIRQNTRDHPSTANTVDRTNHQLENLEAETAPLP
# How the values were obtained:
# [1] = biological target: T1, human mu opioid receptor (MOR1) in HEK-MOR cells (Homo sapiens, UniProt P35372); experiment: DMR profiling of ligands at 10 µM in HEK-MOR cells (assay B); assay type: cell-based; conditions: ligand alone (10 µM in profiling), untreated / 0.1% DMSO-treated cells
# [2] = biological target: T1, human mu opioid receptor (MOR1) in HEK-MOR cells; experiment: iPOT similarity analysis of DMR under 13 assay conditions
smiles,measurement,setting,value
"CN(C(=O)Cc1ccc(Cl)c(Cl)c1)[C@H](CN1CCCC1)c1ccccc1 [ICI 199,441]",DMR produced by ligand in HEK-MOR cells,[1],P-DMR
same,pharmacology at the MOR concluded from DMR profiling,[2]; HEK-MOR cells,agonist for the MOR
same,"subcluster in heat map (super cluster 1 antagonists, 2 agonists)","[2]; Ward hierarchical clustering of 13 DMR profiles, ligand 10 µM",subcluster 2.1
